Measurements taken from the supplement of paper PMC9931576.
Human monoclonal antibodies against the spike receptor-binding domain (heavy:light variable regions). IC50 against pseudoviruses bearing the spike of naturally observed variants; lower = stronger; >10 µg/ml means not reached at the top dose. No active / inactive call. The stated detection limit is 0.0005 µg/ml; values near or below 0.001 µg/ml lie at the floor of the assay.

B1: BD55-6432 (protein)
chain 1: QVQLVESGGGVVQPGRSLRLSCAASGFPFDNYAINWVRQAPGKGLEWVALISYDGSNKYYAESVKGRLTISRDNSKNLLYLEMNTLRAEDTAVYYCARGGLFGDFSSYHYYGLDAWGQGTTVTVSS
chain 2: QSVLTQAPSASGTPGQRVTISCSGGGSNVGSNYVFWYQHLPGTAPKLLIFRNNQRPSGVPDRFSGSRSGTSASLAISGLRSEDEADYYCAAWDDSLRAWVFGGGTMLTVL
B2: BD55-6433 (protein)
chain 1: EVQLEQSGAELKKPGESLKISCKGSGYTFTNYWIAWVRQMPGKGLEYMGVIYAGDSDTRYSPSFQGQVTISADKSISTVYLHWSSLGASDSAMYYCARLGHGYSYGYIDYWGQGTLITVSS
chain 2: DIVMTQSPDSLAVSLGERATINCKSSQSVLSTSINKNYLAWYQQKPSQPPKLLIYWASTREFGVPDRFSGSGSGTDFTLTISSLQAEDVAVYYCQQYYSTLWTFGQGTKVEIK
B3: BD55-6456 (protein)
chain 1: QVQLVESGGGVVQPGRSLRLSCAASGLTFRRYGMHWVRQAPGKGLEWVAVISYDEINRYYADSVKGRFAISRDNSKNTLYLQMNSLRPEDTAVYYCAKAGGPYCGGGNCYSGYFDYWGQGTLVTVSS
chain 2: DIQMTQSPSSLSASVGDRVTITCQASQDIRNYLNWYQQKPGKAPKLLIYDTSNLETGVPSRFSGSGSGTDFTFTISSLQPEDIAIYYCQQYDNVPITFGQGTRLDIK
B4: BD55-6454 (protein)
chain 1: EVQLVQSGAEVKKPGESLKISCKGSGYSFSTYWIAWVRQMPGKSLEWMGIIYPGGSDTRYSPSFQGQVTISVDNSISTAYLQWGSLKASDTARYYCARHAGELRSIDWQNNGMDVWGQGTTVTVSS
chain 2: DIQLTQSPSSLSASVGDRVTITCRASQSISTYLHWYQQKPGKAPKLLIYAASTLQSGVPSRFSGSGSGTAFSLTINSLQPEDFATYYCQQSYTIPTWTFGQGTKVEIK
B5: BD55-6446 (protein)
chain 1: QVQLVQSGAEVKKPGASVKVSCEASGYTFTDSFMHWVRQAPGQGLEWMAYIDPNEGVTNYAQKFQGRVTLTRDTSIRTAYMELSRLRSDDTAIYYCAREYYDFSTGYSRFDFWGRGTLVTVSS
chain 2: DIQMTQSPSSLSASVGDRVTITCRASQSISNYLNWYQQTPGKAPTLLIYAASSLQSGVPSRFSGSGSGTDFTLTISSLQPEDFATYYCQQSYTSFPKTFGPGTKVYIK
B6: BD55-6429 (protein)
chain 1: QVQLVESGGGVVQPGRSLRLSCAASGFTFSAYDIHWVRQAPGKGLEWVAVISYDGAIKFYADSVKGRFTISRDNSKNMLYLQMNSLRAEDTAMYYCAKEQTYDALTGLYYFDYWGQGTLVTVSS
chain 2: DIQMTQSPSSLSASVGDRVTITCRASQSISRHLNWYQQKPGKAPKLLIYAASTLQSGVPSRFSGSGSGTDFTLTVSSLQPEDFATYYCQQSFSTPQITFGPGTKVDIK
B7: BD55-6445 (protein)
chain 1: QEQLVESGGGLVKPGGSLRLSCAASGFTFSDYYMSWVRQAPGKGLEWVSYISRGVPYTNYADSVKGRFTISRDDAKNSLYLQMNNLRVEDTGVYYCARDRNWNYEDAFDIWGQGTMVTVSS
chain 2: IQMTQSPSSLSASVGDRVTITCRASLSISSYVNWYQQKPGKAPKLLIYGASNLQSGVPSRFSGSGSGTDFTLTISSLQPEDFATYYCQQSYTTPLFTFGPGTKVDIK
B8: BD55-6431 (protein)
chain 1: QEQLVQSGGGVVQPGRSLTLSCSASGFSFSNYAMNWVRQAPGKGLEWVAMISYEGSKKFYADSVKGRFIISRDNSKSTLSLQMIGLRDEDSAVYYCAKEGYYESGSSGYRFDPWGPGSLVTVSS
chain 2: DIQMTQSPSSLSASVGDRVTITCRASQSINTYLNWYQQKPGKAPKLLIHVASNLQNGVPSRFSGSGSGTEFTLTISSLQPEDLATYYCQQSHSIPRTFGQGTKVEI
B9: BD55-6449 (protein)
chain 1: QAHLVQSGAEVKKPGASVKVSCKTSGYTFANYGVNWLRQAPGQGLEWMGWISTYNGNTNYAHNFQGRLTLTTDTSTATASMELRSLSSNDTAIYFCARDANSDGTGYHYRGGPFNWFDPWGQGTLVTVSS
chain 2: QSVLTQPPSASGTPGQRVTISCSGSISNIGSNYVHWYQQLPGAAPKLLIYKNNQRPSGVPDRFSGSKSGTSASLAISGLRSEDEADYYCAAWEDSPSGPWVFGGGTKVTVL
B10: BD55-6461 (protein)
chain 1: QLQLQESGPRLVKPSETLSLTCSVSGGSISSTTYYYWGWVRQSPGKGLEWIGTIHFDGTIHYNPSLKRRVTISVDTPKTQFSLRLTSVTAADTAVYFCTRPEIISGYSNEWQGPTFYFKSWGQGTQVTVSS
chain 2: SYVLTQPPSVSVAPGKTATITCVENNIGSQSVHWYQQKPGQAPVLVVFDNTARPSTIPERFSGFTSGNTATLTITGVEVGDEADYFCQVWDTSRNLVVFGGGTKVTVL
B11: BD55-6447 (protein)
chain 1: QITLKESGPTLVKPTQTLTLTCTFYGFSLSTSGVGVGWIRQPPGKALEWLALIYWEDDKYYSPSLKNRLTITKDTSKDQVVLTMTNMDPVDTATYYCAHTMLFEYGDFDYWGQGTLVTVSS
chain 2: QSALTQPASVSGSPGQSITVSCSGITGDVGEYSYVSWYQQHPGKAPKLMIYDVSNRPSGVSNRFSGSKSGNTASLTISGLQAEDEAVYYCSSYKSSTTSRVFGGGTKLTVL
B12: BD55-6453 (protein)
chain 1: QVQLVQSGAEVKKPGASVKVSCKASGYTFTGYDINWVRQTTGQGLEWMGWMNPNSGDTGYAPKFQGRVTMTRNTSINTAYMELSSLTSEDTAVYYCARDGGGYYYGSGSHWGQGTLVTVSS
chain 2: DIQMTQSPSSLSASVGDRVTITCRASQTISYYLNWYQQKPGKAPKLLIFAASNLQGGVPPRFSGSGSGTDFTLTISGLQPEDFATYYCQQSYSTPYNFGQGTKLEI

What follows are binders tested against SARS-CoV-2 Omicron BA.1 spike pseudovirus (assay: pseudovirus neutralization IC50; higher = weaker neutralization).
Description: (§1)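 Single-round VSV luciferase pseudovirus mixed with antibody dilutions for 1 h and put on Huh-7 cells for about a day; IC50 from the dose curve.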

Binder	pseudovirus neutralization IC50
B1	> 10 µg/mL
B2	1.26 µg/mL
B3	> 10 µg/mL
B4	> 10 µg/mL
B5	> 10 µg/mL
B6	> 10 µg/mL
B7	> 10 µg/mL
B8	> 10 µg/mL
B9	6.55 µg/mL
B10	> 10 µg/mL
B11	3.14 µg/mL
B12	> 10 µg/mL

These binders were tested against SARS-CoV-2 Omicron BA.2 spike pseudovirus in the same assay as above.
Description: as §1

Binder	pseudovirus neutralization IC50
B1	> 10 µg/mL
B2	1.03 µg/mL
B3	> 10 µg/mL
B4	> 10 µg/mL
B5	> 10 µg/mL
B6	> 10 µg/mL
B7	> 10 µg/mL
B8	> 10 µg/mL
B9	4.3 µg/mL
B10	> 10 µg/mL
B11	> 10 µg/mL
B12	> 10 µg/mL

The binders below were run against SARS-CoV-2 Omicron BA.2.75 spike pseudovirus in the same assay as above.
Description: as §1

Binder	pseudovirus neutralization IC50
B1	> 10 µg/mL
B2	1.12 µg/mL
B3	> 10 µg/mL
B4	> 10 µg/mL
B5	> 10 µg/mL
B6	> 10 µg/mL
B7	> 10 µg/mL
B8	> 10 µg/mL
B9	8.51 µg/mL
B10	> 10 µg/mL
B11	> 10 µg/mL
B12	> 10 µg/mL

These binders were tested against SARS-CoV-2 Omicron BA.5 spike pseudovirus in the same assay as above.
Description: as §1

Binder	pseudovirus neutralization IC50
B1	> 10 µg/mL
B2	1.33 µg/mL
B3	> 10 µg/mL
B4	> 10 µg/mL
B5	> 10 µg/mL
B6	> 10 µg/mL
B7	> 10 µg/mL
B8	> 10 µg/mL
B9	5.85 µg/mL
B10	> 10 µg/mL
B11	> 10 µg/mL
B12	> 10 µg/mL

What follows are binders tested against SARS-CoV-2 Omicron BQ.1.1 spike pseudovirus in the same assay as above.
Description: as §1

Binder	pseudovirus neutralization IC50
B1	> 10 µg/mL
B2	> 10 µg/mL
B3	> 10 µg/mL
B4	> 10 µg/mL
B5	> 10 µg/mL
B6	> 10 µg/mL
B7	> 10 µg/mL
B8	> 10 µg/mL
B9	> 10 µg/mL
B10	> 10 µg/mL
B11	> 10 µg/mL
B12	> 10 µg/mL

The binders below were run against SARS-CoV-2 Omicron XBB spike pseudovirus in the same assay as above.
Description: as §1

Binder	pseudovirus neutralization IC50
B1	> 10 µg/mL
B2	6.37 µg/mL
B3	> 10 µg/mL
B4	> 10 µg/mL
B5	> 10 µg/mL
B6	> 10 µg/mL
B7	> 10 µg/mL
B8	> 10 µg/mL
B9	> 10 µg/mL
B10	> 10 µg/mL
B11	> 10 µg/mL
B12	> 10 µg/mL

What follows are binders tested against SARS-CoV-2 early D614G spike pseudovirus in the same assay as above.
Description: as §1

Binder	pseudovirus neutralization IC50
B1	> 10 µg/mL
B2	1.07 µg/mL
B3	> 10 µg/mL
B4	> 10 µg/mL
B5	> 10 µg/mL
B6	> 10 µg/mL
B7	> 10 µg/mL
B8	0.371 µg/mL
B9	4.88 µg/mL
B10	2.02 µg/mL
B11	0.336 µg/mL
B12	> 10 µg/mL
